PMC2008936 (British Journal of Cancer, 1973)

Tested on: bacterial strains used in this work
Test: Direct toxicity of the compound alone (no liver preparation) to the bacterial strains
Conditions: at the concentrations used

Substance: aflatoxin B1
- Toxicity of the compound alone (without liver preparation): None of the bacterial strains used in this work were killed
